The assay addresses human Calmodulin-1 (human, UniProt P0DP23 1-149). Description: SPR.

For one molecule, koff results are on record in PMC8464830 (2021).

B1: HIV-1 MA protein from clade B (NL4-3), full-length (natural protein)
chain: MGARASVLSGGELDRWEKIRLRPGGKKKYKLKHIVWASRELERFAVNPGLLETSEGCRQILGQLQPALQTGSEELRSLHNTVAVLYCVHQRIEVKDTKEALEKIEEEQNKSKKTAQQAAADTGNSNKVSQNY
Turning to B1, the koff (commonly the rate constant with which the complex falls apart) was 0.301 s⁻¹.
